# Results reported in PubChem BioAssay AID1117319 (Southern Research Institute, 2015).
# The other results are listed elsewhere or left out. Records with an inconclusive call do not appear. Activity calls are given as the source filed them.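 How the source made its calls: active means inhibition above a set limit at one or more doses, reproduced on every date tested; inconclusive means results disagree between test dates, or hit never tested in dose response; inactive means the rest.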
# Molecular target: Virion infectivity factor (Human immunodeficiency virus type 1 group M subtype B (isolate BH10)) + Virion infectivity factor (Human immunodeficiency virus type 1 group M subtype B (isolate BRU/LAI)) + Virion infectivity factor (Human immunodeficiency virus type 1 group M subtype B (isolate PCV12)) + Virion infectivity factor (Human immunodeficiency virus type 1 group M subtype B (isolate HXB2)) + DNA dC->dU-editing enzyme APOBEC-3G (Homo sapiens) (UniProt P69720+P69721+P69722+P69723+Q9HC16)
# Assay: inhibitors of Vif binding to APOBEC3G peptide, primary screen, biochemical, TR-FRET, GST-Vif 1-94, biotin-A3G peptide, dose response retest (AID 1117319);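 further: Vif residues 1-94 fused to GST binding biotinylated APOBEC3G peptide 110-148; 0% = full assay without inhibitor and 100% = GST in place of GST-Vif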
# Settings: hits give high values
row,Structure (SMILES),inhibition
1,c1ccc(CN2CCC(Nc3ccccc3)CC2)cc1,inactive: 1.68%
2,Cc1cc(N(CCCl)CCCl)ccc1C=O,inactive: -3.41%
3,CN(C)C1(CNC(=O)c2cccc(C#N)c2)CCCCC1,inactive: 1.87%
4,CC(C)(C)OC(=O)N1CCC(N(C(=O)c2ccccc2)c2ccc(Cl)cc2)CC1,inactive: -6.84%
5,N/C(=N\O)c1c(N)no[n+]1[O-],inactive: -0.35%
6,CCOC(=O)N1CCC(Nc2ccc(C)cc2)CC1,inactive: -0.38%
7,COc1ccc(C(=O)NCC2(N3CCOCC3)CCCCC2)cc1OC,inactive: 14.6%
8,CCCOc1ccc(C)cc1CN(CCCl)CCCl,inactive: -4.24%
9,CCC(CO)(C(=O)OC1CN2CCC1CC2)c1ccccc1 (stereo unspecified),inactive: -3.03%
10,COc1cccc(C(=O)N(c2cc(C)cc(C)c2)C2CCN(C(=O)OC(C)(C)C)CC2)c1,inactive: 0.09%
11,COc1cc(OC)cc(C(=O)NCC2(N3CCOCC3)CCCCC2)c1,inactive: 0.4%
12,CCCOc1ccc(C(=O)NCC2(N(C)C)CCCCC2)cc1,inactive: -0.4%
13,CC(C)(C)OC(=O)N1CCC(Nc2ccccc2)CC1,inactive: 0.57%
14,O=C(O)C1(Nc2ccccc2)CCN(Cc2ccccc2)CC1,inactive: -2.35%
15,CCOc1ncccc1C(=O)NCC1(N2CCOCC2)CCCCC1,inactive: -3.28%
16,CN1CCC(Nc2ccc(F)c(Cl)c2)CC1,inactive: 9.2%
17,O=C(NCC1(N2CCCCC2)CCCCC1)c1ccco1,inactive: 0.87%
18,Cn1c(=O)[nH]cc(N(CCCl)CCCl)c1=O,inactive: -2.93%
19,CN(C)c1ccc(C(=O)NCC2(N3CCCCC3)CCCCC2)cc1,inactive: -4.4%

row,Structure (SMILES),inhibition
1,Cc1ccccc1NC1(C#N)CCN(Cc2ccccc2)CC1,inactive: -6.45%
2,CCN1CCC(Nc2cccc(F)c2)CC1,inactive: 6.57%
3,Cc1ccc(NC2(C#N)CCN(Cc3ccccc3)CC2)cc1,inactive: -9.64%
4,Cc1ccc(C(=O)NCC2(N3CCCCC3)CCCCC2)o1,inactive: 2.68%
5,Fc1ccccc1NC1CCN(Cc2ccccc2)CC1,inactive: 1.08%
6,CC(=O)N(c1ccccc1)C1CCNCC1,inactive: -7.91%
7,COc1cc(C(=O)NCC2(N(C)C)CCCCC2)ccc1OC(F)F,inactive: 6%
8,Cc1ccc(OCC(C)C)c(CN(CCCl)CCCl)c1,inactive: 7.3%
9,CCCCOc1ccc(C(=O)NCC2(N3CCOCC3)CCCCC2)cc1,inactive: 0.62%
10,O=P1(N(CCCl)CCCl)SCCCS1,inactive: -1.68%
11,COc1ccc(NC2CCN(CCc3ccccc3)CC2)c(OC)c1,inactive: 29.1%
12,CCOc1ccc(C)cc1CN(CCCl)CCCl,inactive: 17.8%
13,CCOC(=O)N1CCC(Nc2ccc(OC)cc2)CC1,inactive: 5.14%
14,O=C(OC1CN2CCC1CC2)C1c2ccccc2Oc2ccccc21 (stereo unspecified),inactive: 4.74%
15,O=C(NCC1(N2CCCCC2)CCCCC1)c1ccc(Cl)s1,inactive: 1.03%
16,N#CC1(Nc2ccccc2)CCN(Cc2ccccc2)CC1,inactive: 2.72%
17,O=C(NCC1(N2CCCCC2)CCCCC1)c1ccc(Cl)nc1,inactive: -0.54%
18,Cc1cc(C)cc(N(C(=O)c2ccccc2)C2CCN(C(=O)OC(C)(C)C)CC2)c1,inactive: -7.21%
19,CSc1ccccc1C(=O)NCC1(N2CCCCC2)CCCCC1,inactive: 2.67%

row,Structure (SMILES),inhibition
1,Cc1cccc(NC2(C#N)CCN(Cc3ccccc3)CC2)c1,inactive: -1.13%
2,O=C(NCC1(N2CCCCC2)CCCCC1)c1ccc(=O)[nH]c1,inactive: -3.41%
3,O=C(NCC1(N2CCCCC2)CCCCC1)c1cccs1,inactive: 7.39%
4,COc1ccc(C(=O)NCC2(N3CCCCC3)CCCCC2)cc1,inactive: 1.2%
5,CC(C)(C)OC(=O)N1CCC(N(C(=O)c2ccccc2)c2ccc(F)cc2)CC1,inactive: -7.38%
6,COc1ccc(C(=O)NCC2(N3CCCCC3)CCCCC2)c(OC)c1OC,inactive: -1.97%
7,CCCOc1ccc(C(=O)NCC2(N(C)C)CCCCC2)cc1OC,inactive: -3.82%
8,O=C(NCC1(N2CCCCC2)CCCCC1)c1cncc(Br)c1,inactive: 0.22%
9,CN1CCC(Nc2cccc(F)c2)CC1,inactive: -1.12%
10,COc1cc(OC)c(C(=O)NCC2(N(C)C)CCCCC2)cc1OC,inactive: 8.61%
11,COc1ccc(CN(CCCl)CCCl)cc1Cl,inactive: 1.76%
12,CC(C)c1ccc(NC2CCN(C(=O)OC(C)(C)C)CC2)cc1,inactive: -3.59%
13,CC(C)c1ccc(C(=O)NCC2(N3CCOCC3)CCCCC2)cc1,inactive: -3.05%
14,O=C(NCC1(N2CCOCC2)CCCCC1)c1cc(=O)[nH]c2ccccc12,inactive: 4.68%
15,COc1cc(C(=O)NCC2(N3CCCCC3)CCCCC2)ccc1OC(F)F,inactive: -5.87%
16,O=C(NCC1(N2CCCCC2)CCCCC1)c1cccc([N+](=O)[O-])c1,inactive: 4.27%
17,CSc1ccc(C(=O)NCC2(N3CCOCC3)CCCCC2)cc1,inactive: -2.26%
18,N#CC1(Nc2ccccc2)CCN(CCc2ccccc2)CC1,inactive: -2.95%
